Anti-infective test results gathered from many reports (values: NIAID ChemDB through PubChem).

Shared fields: growth or infection tests; agent: Hepatitis B virus; endpoint: EC50

An empty or dashed field is not shown.

smiles	strain	cells	read by	result
Nc1ccn([C@H]2O[C@@H](CO)C=C2F)c(=O)n1	RTM204	HepAD38		<0.74 µM
CC1=C(O)C(=O)C=C2C1=CC=C1[C@@]2(C)CC[C@@]2(C)[C@@H]3C[C@](C)(C(=O)N4CCCCC4)CC[C@]3(C)CC[C@]12C		HepG2 2.2.15	ELISA / antigen	33.1 µM
Nc1nc(N)c2ncn([C@H]3CO[C@@H](CO)O3)c2n1	DUAL			62 µM
Nc1nc(=O)n([C@@H]2C=C[C@H](CO)O2)cc1F	RTM204	HEPAD79		<0.88 µM
O=C1C[C@@H](c2ccc(O)cc2)Oc2cc(OC3O[C@H](CO)[C@@H](O)[C@H](O)[C@H]3O)cc(O)c21		HepG2.2.15	PCR	41.59 µM
Cc1c(N)nc(N)nc1OCCOCP(=O)(O)O		HEPAD79	PCR	2 µM
CC1=C(O)C(=O)C=C2C1=CC=C1[C@@]2(C)CC[C@@]2(C)[C@@H]3C[C@](C)(C(=O)OCc4ccc(C)cc4)CC[C@]3(C)CC[C@]12C		HepG2 2.2.15	ELISA / antigen	9.2 µM
Nc1ccn(CCOCP(=O)(O)O)c(=O)n1		HB611		>400 µM
Nc1ncnc2c1ncn2CCOCP(=O)(O)O		HepG2		0.34 µM
Nc1nc(=O)n([C@H]2CS[C@@H](CO)O2)cc1F	RTM204	HepAD38		<6.94 µM
Cc1cc(OCCOCP(=O)(O)O)nc(N)n1		HEPAD79	PCR	>300 µM
Nc1ccn(CC(CF)OCP(=O)(O)O)c(=O)n1		HB611		200 µM
Nc1ccn([C@@H]2CS[C@H](CO)O2)c(=O)n1	M550I			>50 µM
CC1=C(O)C(=O)C=C2C1=CC=C1[C@@]2(C)CC[C@@]2(C)[C@@H]3C[C@](C)(C(=O)N4CCOCC4)CC[C@]3(C)CC[C@]12C		HepG2 2.2.15	ELISA / antigen	15.7 µM
C[C@H](Cn1cnc2c(N)ncnc21)OCP(=O)(O)O		HepAD38	PCR	0.17 µM
Nc1nc2c(ncn2CCC(CO)CO)c(=O)[nH]1	Mutation M550I	HepG2		1217 µM
Nc1ncc2ncn(CCOCP(=O)(O)O)c2n1		HB611		17 µM
Nc1cc(OCCOCP(=O)(O)O)nc(N)n1		HepAD38	PCR	0.3 µM
Nc1ccn([C@@H]2CS[C@H](CO)O2)c(=O)n1		HepG2 2.2.15	ELISA / antigen	177.4 µM
COc1cc(O)c2c(=O)c(O)c(-c3ccc(O)cc3)oc2c1		HepG2.2.15	PCR	491 µM
Cc1c(O)c(O)cc2c1CC=C1[C@@]2(C)CC[C@@]2(C)[C@@H]3C[C@](C)(C(=O)O)CC[C@]3(C)CC[C@]12C		HepG2 2.2.15	ELISA / antigen	>100 µM
COC(C)c1ccc(O)c(O)c1		HepG2.2.15	ELISA / antigen	446 µM
Nc1nc(=O)n([C@@H]2C=C(F)[C@H](CO)O2)cc1F	RTM204	HepAD38		<0.22 µM
C[C@H](Cn1cnc2c(N)nc(N)nc21)OCP(=O)(O)O		HepAD38	PCR	0.3 µM
CC[C@H](CCC(C)[C@H]1CC[C@H]2[C@@H]3CCC4=CC(=O)CC[C@]4(C)[C@H]3CC[C@]12C)C(C)C		HepG2.2.15	PCR	166 µM
Nc1cc(SCCOCP(=O)(O)O)nc(N)n1		HEPAD79	PCR	1 µM
O=c1ccn(CCOCP(=O)(O)O)c(=O)[nH]1		HB611		200 µM
COc1ccc([C@H]2OC[C@H]3[C@@H]2CO[C@@H]3c2cc(OC)c(O)c(OC)c2)cc1O		HepG2.2.15	ELISA / antigen	50.98 µM
Nc1cc(OCCOCP(=O)(O)O)nc(=O)[nH]1		HepAD38	PCR	>300 µM
O=C(O)c1ccc(O)cc1		HepG2.2.15	PCR	275 µM
Nc1ncnc2c1ncn2CCOCP(=O)(O)O	Mutations L528M M552V	Huh7		2.2 µM

4 of the rows above, restated:

smiles	strain	cells	read by	result
O=C1C[C@@H](c2ccc(O)cc2)Oc2cc(OC3O[C@H](CO)[C@@H](O)[C@H](O)[C@H]3O)cc(O)c21		HepG2.2.15	PCR	41.59 µM
Nc1nc(N)c2ncn([C@H]3CO[C@@H](CO)O3)c2n1	DUAL			62 µM
Nc1nc(=O)n([C@@H]2C=C[C@H](CO)O2)cc1F	RTM204	HEPAD79		<0.88 µM
Nc1nc(=O)n([C@@H]2C=C(F)[C@H](CO)O2)cc1F	RTM204	HepAD38		<0.22 µM

Rows are shuffled and stem from different studies. ECn: concentration that inhibits the pathogen or its effect by n%.